Measured values from article PMC8954747 (Viruses, 2022).
Like-named read-outs stand apart in the source and are kept apart here. The structures given here were assigned with low confidence; some may be wrong.

Amino acid sequences for entries named in this document (tags omitted).
UniProt Q14160, whole entry, looked up: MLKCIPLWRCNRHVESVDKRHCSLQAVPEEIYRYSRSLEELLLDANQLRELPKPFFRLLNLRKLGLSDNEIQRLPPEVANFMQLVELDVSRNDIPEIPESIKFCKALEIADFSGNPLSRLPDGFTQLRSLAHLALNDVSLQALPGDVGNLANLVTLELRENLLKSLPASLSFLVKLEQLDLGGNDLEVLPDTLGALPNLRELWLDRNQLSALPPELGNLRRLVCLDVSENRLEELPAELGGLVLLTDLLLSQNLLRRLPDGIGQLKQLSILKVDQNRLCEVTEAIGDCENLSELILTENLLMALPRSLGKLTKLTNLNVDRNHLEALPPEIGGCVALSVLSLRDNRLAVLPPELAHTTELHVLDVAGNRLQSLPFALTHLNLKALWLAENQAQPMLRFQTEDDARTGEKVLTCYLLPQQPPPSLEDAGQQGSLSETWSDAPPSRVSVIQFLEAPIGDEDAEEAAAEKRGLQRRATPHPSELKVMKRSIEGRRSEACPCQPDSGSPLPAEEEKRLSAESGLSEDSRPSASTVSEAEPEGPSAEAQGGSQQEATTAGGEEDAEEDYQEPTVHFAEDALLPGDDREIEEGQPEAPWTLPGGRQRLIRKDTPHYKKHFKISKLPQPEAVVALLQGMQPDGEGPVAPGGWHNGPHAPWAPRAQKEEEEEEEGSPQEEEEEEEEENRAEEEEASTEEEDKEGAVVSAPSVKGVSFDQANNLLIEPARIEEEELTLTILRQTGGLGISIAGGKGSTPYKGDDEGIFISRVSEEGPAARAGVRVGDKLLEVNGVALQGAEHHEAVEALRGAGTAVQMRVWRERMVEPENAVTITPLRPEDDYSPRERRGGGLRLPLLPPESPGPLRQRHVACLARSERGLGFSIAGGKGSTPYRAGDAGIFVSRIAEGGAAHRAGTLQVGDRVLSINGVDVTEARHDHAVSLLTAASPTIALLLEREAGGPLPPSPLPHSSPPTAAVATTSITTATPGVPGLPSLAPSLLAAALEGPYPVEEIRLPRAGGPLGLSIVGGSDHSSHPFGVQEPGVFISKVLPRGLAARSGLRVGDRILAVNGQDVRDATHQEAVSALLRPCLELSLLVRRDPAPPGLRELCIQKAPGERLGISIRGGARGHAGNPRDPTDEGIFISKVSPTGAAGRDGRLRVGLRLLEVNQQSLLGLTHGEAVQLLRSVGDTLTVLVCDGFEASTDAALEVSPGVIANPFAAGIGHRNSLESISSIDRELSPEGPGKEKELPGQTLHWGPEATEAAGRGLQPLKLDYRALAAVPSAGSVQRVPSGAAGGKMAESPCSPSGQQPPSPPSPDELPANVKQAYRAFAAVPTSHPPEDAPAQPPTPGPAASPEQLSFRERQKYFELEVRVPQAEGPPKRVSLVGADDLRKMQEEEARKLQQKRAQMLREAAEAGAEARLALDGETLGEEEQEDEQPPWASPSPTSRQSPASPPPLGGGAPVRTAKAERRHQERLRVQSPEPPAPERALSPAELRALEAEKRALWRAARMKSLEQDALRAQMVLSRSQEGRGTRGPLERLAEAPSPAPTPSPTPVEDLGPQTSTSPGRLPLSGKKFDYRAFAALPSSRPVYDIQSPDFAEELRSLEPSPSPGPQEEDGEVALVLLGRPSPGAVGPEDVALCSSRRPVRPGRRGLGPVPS

Biological target: SCRIB PDZ domains (UniProt Q14160)
Experiment: ITC binding to the individual SCRIB PDZ domains (summary over PDZ1-4)
Design: species or system human

CSCC[C@H](NC(=O)[C@@H](N)CCCCN)C(=O)N[C@@H](C)C(=O)N[C@@H](CCCNC(=N)N)C(=O)N[C@H](C(=O)N[C@@H](C)C(=O)N[C@@H](CCCNC(=N)N)C(=O)N[C@@H](CO)C(=O)N[C@@H](CCCCN)C(=O)N[C@H](C(=O)O)C(C)C)[C@@H](C)O
binding to SCRIB PDZ domains (in words): no binding

CC[C@H](C)[C@H](NC(=O)[C@@H](NC(=O)[C@H](CCCNC(=N)N)NC(=O)[C@H](CCC(=O)O)NC(=O)[C@H](CCSC)NC(=O)[C@@H](N)CCCCN)[C@@H](C)O)C(=O)N[C@@H](CCC(=O)O)C(=O)N1CCC[C@H]1C(=O)N[C@@H](CCC(=O)O)C(=O)N[C@H](C(=O)O)C(C)C
binding to SCRIB PDZ domains (in words): did not bind

CC[C@H](C)[C@H](NC(=O)[C@@H](NC(=O)[C@H](CCCNC(=N)N)NC(=O)[C@H](C)NC(=O)[C@H](CCSC)NC(=O)[C@@H](N)CCCCN)[C@@H](C)O)C(=O)N[C@@H](CCCCN)C(=O)N[C@@H](CO)C(=O)N[C@@H](CCC(=O)O)C(=O)N[C@H](C(=O)O)C(C)C
binding to SCRIB PDZ domains (in words) (listed as KSEV): no binding

CC[C@H](C)[C@H](NC(=O)[C@@H](NC(=O)CNC(=O)[C@H](C)NC(=O)[C@H](CCSC)NC(=O)[C@@H](N)CCC(=O)O)[C@@H](C)O)C(=O)N[C@@H](CCCNC(=N)N)C(=O)N[C@@H](CO)C(=O)N[C@@H](CCC(=O)O)C(=O)N[C@H](C(=O)O)C(C)C
binding to SCRIB PDZ domains (in words): no binding
